Source: PubChem BioAssay AID651607 (The Scripps Research Institute Molecular Screening Center, 2012)
This is a selection; strong and weak results do not stand in their true shares. Activity calls are given as the source filed them. Rule as the data show it: active = inhibition above about 17%; inactive = the rest.

test system: methionyl-tRNA synthetase (Trypanosoma brucei brucei); assay: inhibition of trypanosome methionyl-tRNA synthetase – biochemical, fluorescence polarization, orthogonal assay for T. brucei MetRS inhibitor project (AID 651607);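 also: 0% = vehicle wells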; details: purified T. brucei MetRS, at 11.9 µM, active compounds read high

Compound	inhibition
CCC1=CC2Cc3nc4ccc(Cl)cc4c(N)c3C(C1)C2 (configuration not stated)	active: 90.5%
O=P(Nc1nc2ccc(Cl)cc2s1)(c1ccccc1)c1ccccc1	active: 19.2%
